{"source": "PubChem BioAssay AID1259414 | Drosophila RNAi Screening Center – 2018", "aim": "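Genome-wide screen for host control of endosymbiont load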 (primary screen)", "system": "Drosophila JW18 cells infected with Wolbachia", "reagent": "long dsRNA against Drosophila genes, 0.25 µg dsRNA per well of a 384-well plate", "duration": "5 days", "challenge": "cells persistently infected with Wolbachia before knock-down; no added drug", "measurement": "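Imaged fluorescence in situ signal for Wolbachia 23S rRNA per DAPI-counted host cell, given as a robust z-score within each plate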", "scale": "Wolbachia per cell robust z: higher = more Wolbachia per host cell than the plate typical", "call rule": "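Active if absolute robust z reaches 1.5 in two or more of three replicates, leaving out multi- or no-target dsRNAs, genes unexpressed in JW18 and A1 wells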", "note": "In all, the deposit lists about 24,000 reagents; below is an unselected part of those that have a named target and a result. Over the whole deposit, about 1,210 (5%) got an active call. 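Inactive calls also include excluded dsRNAs with several or no targets, genes unexpressed in JW18, and well A1, regardless of score.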 A number with no mark means an inactive call. Reagents against one gene are numbered here. Names joined by + are all predicted targets of the reagent."}
{"gene": "CG32187", "reagent no.": 1, "Wolbachia per cell robust z, rep 1": 0.838, "Wolbachia per cell robust z, rep 2": 1.06, "Wolbachia per cell robust z, rep 3": 0.854}
{"gene": "CG4483", "reagent no.": 1, "Wolbachia per cell robust z, rep 1": 0.196, "Wolbachia per cell robust z, rep 2": -1.27, "Wolbachia per cell robust z, rep 3": 0.129}
{"gene": "Tbcb (Tubulin-binding cofactor B)", "reagent no.": 1, "Wolbachia per cell robust z, rep 1": 0.231, "Wolbachia per cell robust z, rep 2": 0.945, "Wolbachia per cell robust z, rep 3": 0.0829}
{"gene": "CG8008", "reagent no.": 1, "Wolbachia per cell robust z, rep 1": 0.381, "Wolbachia per cell robust z, rep 2": 0.499, "Wolbachia per cell robust z, rep 3": -0.193}
{"gene": "CG8008", "reagent no.": 2, "Wolbachia per cell robust z, rep 1": 0.388, "Wolbachia per cell robust z, rep 2": 0.944, "Wolbachia per cell robust z, rep 3": -2.27}
{"gene": "CG8008", "reagent no.": 3, "Wolbachia per cell robust z, rep 1": 1.44, "Wolbachia per cell robust z, rep 2": 0.99, "Wolbachia per cell robust z, rep 3": 0.227}
{"gene": "Crg-1 (Circadianly Regulated Gene)", "reagent no.": 1, "Wolbachia per cell robust z, rep 1": 0.458, "Wolbachia per cell robust z, rep 2": -0.208, "Wolbachia per cell robust z, rep 3": 0.275}
{"gene": "Crg-1 (Circadianly Regulated Gene)", "reagent no.": 2, "Wolbachia per cell robust z, rep 1": -1.51, "Wolbachia per cell robust z, rep 2": 0.223, "Wolbachia per cell robust z, rep 3": -0.514}
{"gene": "mthl7 (methuselah-like 7)", "reagent no.": 1, "Wolbachia per cell robust z, rep 1": 0.76, "Wolbachia per cell robust z, rep 2": 0.318, "Wolbachia per cell robust z, rep 3": 0.637}
{"gene": "Twdlbeta (Tweedlebeta)", "reagent no.": 1, "Wolbachia per cell robust z, rep 1": 0.393, "Wolbachia per cell robust z, rep 2": 0.613, "Wolbachia per cell robust z, rep 3": 0.513}
{"gene": "Twdlbeta (Tweedlebeta)", "reagent no.": 2, "Wolbachia per cell robust z, rep 1": 0.764, "Wolbachia per cell robust z, rep 2": 2.47, "Wolbachia per cell robust z, rep 3": 2.07}
{"gene": "GstD11 (Glutathione S transferase D11)", "reagent no.": 1, "Wolbachia per cell robust z, rep 1": -4.13, "Wolbachia per cell robust z, rep 2": 0.826, "Wolbachia per cell robust z, rep 3": -1.76}
{"gene": "GstD11 (Glutathione S transferase D11)", "reagent no.": 2, "Wolbachia per cell robust z, rep 1": -0.268, "Wolbachia per cell robust z, rep 2": -1.13, "Wolbachia per cell robust z, rep 3": -0.136}
{"gene": "CG1986", "reagent no.": 1, "Wolbachia per cell robust z, rep 1": 0.698, "Wolbachia per cell robust z, rep 2": -0.164, "Wolbachia per cell robust z, rep 3": 0.715}
{"gene": "CG1986", "reagent no.": 2, "Wolbachia per cell robust z, rep 1": 0.698, "Wolbachia per cell robust z, rep 2": 1.16, "Wolbachia per cell robust z, rep 3": -0.229}
{"gene": "can (cannonball)", "reagent no.": 1, "Wolbachia per cell robust z, rep 1": 0.185, "Wolbachia per cell robust z, rep 2": -1.2, "Wolbachia per cell robust z, rep 3": 0.991}
{"gene": "CG30457", "reagent no.": 1, "Wolbachia per cell robust z, rep 1": -0.0322, "Wolbachia per cell robust z, rep 2": 0.505, "Wolbachia per cell robust z, rep 3": 1.07}
{"gene": "CG30457", "reagent no.": 2, "Wolbachia per cell robust z, rep 1": 0.105, "Wolbachia per cell robust z, rep 2": 0.168, "Wolbachia per cell robust z, rep 3": -0.413}
{"gene": "Ada2a + Polr2D", "reagent no.": 1, "Wolbachia per cell robust z, rep 1": "-5.38 (active)", "Wolbachia per cell robust z, rep 2": -4.7, "Wolbachia per cell robust z, rep 3": -0.0637}
{"gene": "Ada2a + Polr2D", "reagent no.": 2, "Wolbachia per cell robust z, rep 1": -0.538, "Wolbachia per cell robust z, rep 2": -1.7, "Wolbachia per cell robust z, rep 3": 0.128}
{"gene": "CG34353", "reagent no.": 1, "Wolbachia per cell robust z, rep 1": -0.565, "Wolbachia per cell robust z, rep 2": 0.0242, "Wolbachia per cell robust z, rep 3": 0.618}
{"gene": "CG34353", "reagent no.": 2, "Wolbachia per cell robust z, rep 1": -0.727, "Wolbachia per cell robust z, rep 2": -0.961, "Wolbachia per cell robust z, rep 3": -0.256}
{"gene": "CG34353", "reagent no.": 3, "Wolbachia per cell robust z, rep 1": 0.633, "Wolbachia per cell robust z, rep 2": -3, "Wolbachia per cell robust z, rep 3": -0.654}
{"gene": "CG34353", "reagent no.": 4, "Wolbachia per cell robust z, rep 1": -4.4, "Wolbachia per cell robust z, rep 2": 0.172, "Wolbachia per cell robust z, rep 3": 0.00805}
{"gene": "CG34353", "reagent no.": 5, "Wolbachia per cell robust z, rep 1": 0.393, "Wolbachia per cell robust z, rep 2": 1.35, "Wolbachia per cell robust z, rep 3": 1.19}
{"gene": "CG34353", "reagent no.": 6, "Wolbachia per cell robust z, rep 1": -0.919, "Wolbachia per cell robust z, rep 2": -2.03, "Wolbachia per cell robust z, rep 3": -0.993}
{"gene": "CG34353", "reagent no.": 7, "Wolbachia per cell robust z, rep 1": 1.09, "Wolbachia per cell robust z, rep 2": 0.912, "Wolbachia per cell robust z, rep 3": 0.806}

Reformatted: 2 of the entries above.
gene	reagent no.	Wolbachia per cell robust z, rep 1	Wolbachia per cell robust z, rep 2	Wolbachia per cell robust z, rep 3
CG4483	1	0.196	-1.27	0.129
Tbcb (Tubulin-binding cofactor B)	1	0.231	0.945	0.0829
